Results deposited as PubChem BioAssay AID624099 (ICCB-Longwood, 2012).

Screen: 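Human genes that papillomavirus E2 requires to repress the HPV18 LCR promoter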 (primary screen)
Cells: human C33A cervical carcinoma cells (HPV-negative) stably expressing BPV1 E2 and an HPV18 LCR luciferase reporter
Reagents: siRNA pool against human genes, 40 nM
Duration: 72 h
Detection: 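HPV18 LCR reporter light per well, converted to plate-wise z-scores that exclude control wells, and averaged over triplicate plates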
Scale: mean z-score and z-score: higher = stronger reporter signal, weaker E2 silencing
Call rule: 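Mean z ≥ 2 together with z ≥ 2 in two or more of the three replicates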
The whole screen tested about 21,000 reagents; this is an unselected part. Of all reagents, 497 (2.4%) were called active. 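Higher z means weaker E2 silencing; only reporter increases were scored, and knock-downs that hurt cell survival may mask genuine repressor factors.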

target gene,mean z-score,"z-score, replicate A","z-score, replicate B","z-score, replicate C",call
FGF22,0.13,0.28,-0.16,0.28,inactive
PPIA,-0.45,-0.44,-0.4,-0.51,inactive
MRFAP1L2,-0.85,-0.79,-0.58,-1.2,inactive
OLIG2,0.53,0.41,0.81,0.36,inactive
HNRNPA1P70,-1.16,-1.33,-1.33,-0.82,inactive
ELAVL2,-1.23,-0.78,-1.52,-1.4,inactive
GOLGA2,-0.09,-0.13,0.01,-0.15,inactive
LOC389271 (retired record),-0.61,-0.62,-0.7,-0.53,inactive
WT1,-0.38,-0.43,-0.43,-0.28,inactive
OTUB1,0.26,0.24,0.26,0.27,inactive
LYPD3,0.52,0.37,0.59,0.61,inactive
XKR7,0.51,0.35,0.54,0.64,inactive
MBD3L1,2.39,2.46,2.27,2.44,active
PTPRH,0.07,-0.04,0.09,0.17,inactive
ABHD12,-0.78,-0.78,-0.74,-0.81,inactive
TPRXL,0.51,0.88,0.46,0.2,inactive
PDCD1,-0.31,-0.44,-0.46,-0.02,inactive
LHX3,-1.3,-1.15,-1.05,-1.68,inactive
APBB1,-0.22,-0.66,0.01,-0.02,inactive
TGFA,-0.05,-0.01,-0.12,-0.03,inactive
SLC18A1,0.16,0.46,0.12,-0.1,inactive
TRIB3,1.31,1.24,1.25,1.43,inactive
FPR2,1.03,1.18,0.8,1.12,inactive

An excerpt from the list above, for reference:
target gene,mean z-score,"z-score, replicate A","z-score, replicate B","z-score, replicate C",call
APBB1,-0.22,-0.66,0.01,-0.02,inactive
TGFA,-0.05,-0.01,-0.12,-0.03,inactive
SLC18A1,0.16,0.46,0.12,-0.1,inactive
